Data: patent publication US11236378B2 (priority 2015, dated 2022)

Experiments:
Aβarc flies = test: Longevity (lifespan) assay of flies fed PAO; settings: Aβarc flies fed with PAO (25, 50, 100, 150 μM in food)
wild type flies = test: Toxicity of PAO on living flies (fly food from embryonic stage)
C57BL/6 mice = test: Toxicity of PAO oral gavage on mice
[1] = tested on: dissected Drosophila third instar larvae; test: Toxicity of PAO on dissected third instar larvae; settings: Schneider's medium, 25° C. overnight

O=[As]c1ccccc1 (stereo not shown)
Aβarc induced defect in lifespan (premature death) (Aβarc flies): significantly ameliorated these defects in a dose-dependent manner | PAO concentration in fly food that neither changed the eclosion rate nor altered the climbing ability (wild type flies): ≤ 200 µM | survival after gavage (C57BL/6 mice; 2.0 mg/kg body weight once a day Monday through Friday, two consecutive weeks): all five mice survived | survival after gavage (C57BL/6 mice; 4.5 mg/kg body weight once a day for five consecutive days): four mice out of five survived | mortality after gavage (C57BL/6 mice; 18, 10 and 6 mg/kg body weight, two mice per dose, second day): All mice were found dead | PAO concentration at which salivary gland cells and CNS neurons turned white, reflecting damage [1]: ≥ 300 nM | PAO concentration with no such effect (no damage) [1]: ≤ 150 nM
